## Potato spindle tuber viroid, loop 15: variant abundance in plants

Data from the supplement of Wu et al. 2024, doi:10.1371/journal.ppat.1012142.

Region: loop 15 of PSTVd (intermediate strain), upper and lower strand joined, each 5' to 3', the first 7 letters being the upper strand, closing pairs included. Wild type: GGAAACCGCUACUAC. Varied positions (N): GGAAACCGNNNNNNC.

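A pool of all variants was put on leaves of three Nicotiana benthamiana plants. Progeny were sequenced from the inoculated region (day 5), the margin of the inoculated leaf (day 10) and systemic leaves (day 12).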

Values are reads per thousand in the sample; higher means more abundant, 0 means not found.
Each value is the mean of three plants.
"Pool" is the share in the plasmid pool used as inoculum, on the same scale.
The inoculated region was read from the minus strand, the other sites from the plus strand.
The authors trace changes outside the varied positions to PCR and sequencing errors or to mutation in the plant; presence does not show that a variant is infectious alone.
Samples held 43,870 to 66,106 reads, so the smallest values rest on one or two reads.
For reference, wild type rose from 33.9 per thousand in the pool to 202, 200, 159 (inoculated region), 724, 746, 710 (leaf margin) and 856, 883, 880 (systemic leaves).

sequence,pool,inoculated region,leaf margin,systemic leaves
GGAAACCGAGUAACC,0.272,0.0885,0.00668,0
GGAAACCGCUUUUUC,0.368,0.132,0.00668,0
GGAAACCGUCAGACC,0.272,0.0788,0.0128,0.0107
GGAAACCGUAAGUAC,0.240,0.338,0.100,0.0268
GGAAACCGGUGAGGC,0.288,0.0664,0.00668,0
GGAAACCGGCUCCCC,0.272,0.0742,0.00742,0
GGAAACCGCGCUAUC,0.224,0.133,0.0200,0
GGAAACCGGGACGAC,0.144,0.0751,0.0128,0.00537
GGAAACCGACUAUUC,0.144,0.142,0.0148,0
GGAAACCGGAUCCAC,0.208,0.174,0,0
GGAAACCGCUCUAUC,0.224,0.0877,0.0187,0.0151
GGAAACCGGGGCUUC,0.272,0.128,0.00668,0
GGAAACCGCCAGCCC,0.208,0.101,0.0108,0
GGAAACCGAAGAAGC,0.192,0.105,0.00668,0
GGAAACCGACGGGAC,0.336,0.0759,0.0148,0
GGAAACCGGGGCGAC,0.272,0.0894,0.00668,0
GGAAACCGGCAACCC,0.256,0.0733,0.00668,0
GGAAACCGUCCAAAC,0.240,0.0849,0.0134,0
GGAAACCGCCUAUGC,0.224,0.0876,0.0215,0.00537
GGAAACCGUAGUGGC,0.336,0.0891,0.00539,0.00760
GGAAACCGUACUGCC,0.112,0.0791,0.00539,0
GGAAACCGCCGGUAC,0.208,0.335,0.132,0.0505
GGAAACCGGGACCCC,0.128,0.0896,0.0208,0
GGAAACCGCGUAUCC,0.384,0.135,0,0
GGAAACCGAUUGGUC,0.224,0.103,0.0275,0.00537
GGAAACCGUCGUCCC,0.208,0.0291,0.00668,0
GGAAACCGACACGUC,0.160,0.0955,0.0388,0
GGAAACCGCGUGCGC,0.288,0.0743,0.0316,0.00537
GGAAACCGUGUGGAC,0.352,0.0861,0.00668,0
GGAAACCGUAAAACC,0.208,0.0974,0.0134,0.00537
GGAAACCGACGUGCC,0.176,0.0623,0.00539,0.00537
GGAAACCGCCUCUGC,0.240,0.211,0.00668,0
GGAAACCGUCCUUUC,0.192,0.432,0.0423,0.0215
GGAAACCGUUUUUCC,0.304,0.0680,0.00668,0
GGAAACCGUUUCAUC,0.208,0.0764,0.00539,0
GGAAACCGCAACCCC,0.112,0.126,0.00668,0
GGAAACCGUCUAAUC,0.240,0.121,0.0121,0.00537
GGAAACCGGGAAACC,0.304,0.138,0.0262,0
GGAAACCGUCGGCUC,0.144,0.107,0.0134,0
GGAAACCGCCGAGGC,0.208,0.109,0.0121,0.00537
GGAAACCGUCAUCGC,0.304,0.0658,0.0175,0
GGAAACCGCUGACGC,0.224,0.0667,0,0
GGAAACCGGGUGGAC,0.128,0.0833,0,0.00537
GGAAACCGAAAAGAC,0.320,0.114,0.0134,0
GGAAACCGUACCGCC,0.208,0.0786,0,0.00537
GGAAACCGGAAAAGC,0.320,0.197,0.0141,0.00760
GGAAACCGCUACUUC,0.880,0.613,0.201,0.436
GGAAACCGAGGCGGC,0.160,0.150,0,0
GGAAACCGCGCGAUC,0.176,0.350,0.149,0.0161
GGAAACCGACUGAAC,0.176,0.0748,0,0
GGAAACCGCAAAAGC,0.224,0.0959,0.0141,0
GGAAACCGGAUUUAC,0.288,0.157,0,0
GGAAACCGACGGAAC,0.160,0.253,0.122,0.0237
GGAAACCGAGGUGCC,0.224,0.109,0,0
GGAAACCGCCCGGUC,0.288,0.323,0.107,0.0161
GGAAACCGUCACGAC,0.352,0.171,0.0267,0.00537
GGAAACCGUCUUAAC,0.272,0.152,0.00668,0.0161
GGAAACCGUGUAAUC,0.224,0.0623,0,0
GGAAACCGUGCCUCC,0.256,0.0614,0.00668,0
GGAAACCGUCAUGGC,0.240,0.100,0.0134,0
GGAAACCGCCACCGC,0.240,0.0981,0.00539,0.00537
GGAAACCGAGGUACC,0.224,0.0869,0.00668,0
GGAAACCGUCACUGC,0.0800,0.292,0.0813,0.0509
GGAAACCGGGAGACC,0.336,0.0734,0.00742,0
GGAAACCGGGCAAAC,0.304,0.0850,0.00668,0
GGAAACCGGGACUAC,0.288,0.332,0.129,0.0155

Extract of 7 entries:

| sequence | pool | inoculated region | leaf margin | systemic leaves |
|---|---|---|---|---|
| GGAAACCGCAACCCC | 0.112 | 0.126 | 0.00668 | 0 |
| GGAAACCGUCCAAAC | 0.240 | 0.0849 | 0.0134 | 0 |
| GGAAACCGUGUAAUC | 0.224 | 0.0623 | 0 | 0 |
| GGAAACCGUGCCUCC | 0.256 | 0.0614 | 0.00668 | 0 |
| GGAAACCGUGUGGAC | 0.352 | 0.0861 | 0.00668 | 0 |
| GGAAACCGGGCAAAC | 0.304 | 0.0850 | 0.00668 | 0 |
| GGAAACCGCCUAUGC | 0.224 | 0.0876 | 0.0215 | 0.00537 |